Pooled drug test results. Numbers come from NIAID ChemDB, via PubChem.

Common to all: host cell toxicity; cell line: Huh7; endpoint: CC50

Two numbers with a dash give a range or band. An empty or dashed field is not shown. Neighbouring rows are from separate reports. CCn: concentration that lowers growth or viability of the cells by n%.

structure,read by,result
CC(C)[C@H](NP(=O)(OC[C@H]1O[C@@H](c2cnc3c(=O)[nH]c(N)nn23)[C@](C)(O)[C@@H]1O)Oc1cccc2ccccc12)C(=O)OCc1ccccc1,MTT,>100 µM
O=C(NCc1ccc(Cl)cc1)c1nc2ccccc2c(=O)n1O,MTT,215.7 µM
CS(=O)(=O)Nc1cccc(-c2ccc3nc(N)nc(O[C@@H]4CCOC4)c3n2)c1,-,>20 µM
COc1ccc(C/C(N)=N/OC(=O)C(c2ccccc2)c2ccccc2)cc1OC,MTS,>100 µM
O=C(NCCc1ccccc1)c1nc2ccccc2c(=O)n1O,MTT,>250 µM
Nc1nc(O[C@@H]2CCOC2)c2nc(-c3ccc(N4CCCC4=O)cc3)ccc2n1,-,>20 µM
Nc1ncnc2c1c(-c1ccc(-c3cccc(-c4ccccn4)n3)cc1)cn2[C@H]1C[C@H](O)[C@@H](CO)O1,-,>100 µM
CCOC(=O)c1c(CSc2ccccc2)n(C)c2cc(C#N)c(O)c(CN(N3CCN(CCOCCO)CC3)N3CCN(CCOCCO)CC3)c12,ATP,51.1 µM
CCOc1nc(N)nc2ccc(-c3ccc(NC(=O)C4(N)CC4)c(F)c3)nc12,-,>20 µM
Cc1ccc(/C(N)=N/OC(=O)N2CCOCC2)cc1,MTS,48.8 µM
Cc1nc(NCc2ccccc2)nc(N[C@@H]2C[C@H](CO)[C@@H](O)[C@H]2O)c1-c1nc2ccccc2s1,MTS,0.03 µM
CC1CCC(C(=O)N(c2cc(-c3ccccc3)sc2C(=O)O)C(C)C)CC1,-,77 µM
CCOC(=O)c1c(CSc2ccccc2)n(C)c2cc(-c3cccnc3)c3c(c12)CN(C)CO3,ATP,29.8 µM
CCOc1nc(N)nc2ccc(-c3ccc(NC(=O)C4(O)CC4)cc3)nc12,-,>20 µM
COc1ccc(N(Cc2c(Cl)cccc2Cl)S(=O)(=O)c2cccc(C#N)c2)cc1C(=O)O,absorbance,25 µM
O=C(CCC1CCCC1)N/C(=C\c1ccc(Oc2ccccc2I)cc1)C(=O)O,-,>50 µM
CCOC(=O)c1c(COc2ccccc2)n(C)c2cc(Br)c(O)c(CN(N3CCC(CO)CC3)N3CCC(CO)CC3)c12,ATP,77.4 µM
COc1ccc(-c2ccc3nc(N)nc(N4CCOCC4)c3c2)cc1OC,-,<10 µM
O=C(NCc1ccc([N+](=O)[O-])cc1)c1nc2ccccc2c(=O)n1O,MTT,>250 µM
N/C(=N\OC(=O)N1CCOCC1)c1cccc(C(F)(F)F)c1,MTS,55.1 µM
CCC(=O)Nc1ccc(-c2ccc3nc(N)nc(NCCOC)c3n2)cc1,-,>20 µM
O=C(NCCCc1ccccc1)c1nc2ccccc2c(=O)n1O,MTT,187.5 µM
COc1ccc(-c2ccc3nc(N)nc(Nc4cccc(Br)c4)c3c2)cc1OC,-,>20 µM
N/C(=N\OC(=O)N1CCOCC1)c1ccc(I)cc1,MTS,38.6 µM
Nc1ncnc2ccc(-c3ccc(F)cc3)cc12,-,>20 µM
COCCOC(=O)NC(=S)Nc1ccc(Oc2ccc(Cl)cc2)c(Cl)c1,MTS,25.3 µM
O=C(/C=C/c1cc(O)c(O)c(O)c1)OCCc1ccccc1,MTS,212.4 µM
COC(=O)C(C)(C)NP(=O)(OC[C@H]1O[C@@H](c2ccc3c(N)ncnn23)[C@](C)(O)[C@@H]1O)Oc1cccc2ccccc12,MTT,>100 µM
COc1cccc(N2CCN(CN3C(=O)/C(=N\c4ncc(Cc5cc(OC)c(OC)c(OC)c5)c(N)n4)c4cc(F)ccc43)CC2)c1,-,>50 µg/mL
CCO[C@H]1C(C)=CN(c2ccc([N+](=O)[O-])cc2)[C@H](c2ccc(Cl)cc2)[C@@H]1C,MTT,>100 µM
Nc1nc(N2CCOCC2)c2cc(-c3ccc(Cl)cc3)ccc2n1,-,10–20 µM
Nc1ncnc2c1c(-c1ccc(-c3cc(-c4ccccn4)nc(-c4ccccn4)c3)cc1)cn2[C@H]1C[C@H](O)[C@@H](CO)O1,-,0.66 µM
N/C(=N\OC(=O)N1CCOCC1)c1c(Cl)cccc1Cl,MTS,>100 µM
CCCCCCCCCCOC(=O)/C=C/c1ccc(O)c(O)c1,MTS,57.9 µM
COc1cc(Cc2cnc(/N=C3\C(=O)N(CN4CCCC4)c4ccc(F)cc43)nc2N)cc(OC)c1OC,-,<50 µg/mL
COC(=O)C(C)(C)NP(=O)(OC[C@H]1O[C@@H](c2cnc3c(=O)[nH]c(N)nn23)[C@](C)(O)[C@@H]1O)Oc1cccc2ccccc12,MTT,>100 µM
COc1cc(Cc2cnc(/N=C3\C(=O)N(CN4CCN(C)CC4)c4ccc(F)cc43)nc2N)cc(OC)c1OC,-,<50 µg/mL
CCOc1nc(N)nc2ccc(-c3ccc(C(=O)Nc4ccc(F)cc4)cc3)nc12,-,>20 µM
N/C(Cc1ccc([N+](=O)[O-])cc1)=N\OC(=O)N1CCOCC1,MTS,94.6 µM
CCc1nc(N(C)C)nc(N[C@@H]2C[C@H](CO)[C@@H](O)[C@H]2O)c1-c1nc2ccccc2s1,MTS,16 µM
O=C(NCc1cccs1)c1cc2nc(-c3ccco3)cc(C(F)(F)Cl)n2n1,MTT,>0.454 µM
CCOc1nc(N)nc2ccc(-c3ccc(NC(=O)C4(N)CC4)cc3)nc12,-,>20 µM
Cc1cccc(/C(N)=N/OC(=O)N2CCOCC2)c1,MTS,47 µM
CCOC(=O)c1c(CSc2ccccc2)n(C)c2cc(C#N)c(O)c(CN(N(C)C)N(C)C)c12,ATP,51.6 µM
CC(C)Oc1nc(N)nc2ccc(-c3ccc(C(=O)NC(C)(C)C)cc3)nc12,-,>20 µM
COc1cc(Cc2cnc(/N=C3\C(=O)N(CN4CCN(c5ccc(Cl)cc5)CC4)c4ccc(F)cc43)nc2N)cc(OC)c1OC,-,<50 µg/mL
N/C(Cc1cccc2ccccc12)=N\OC(=O)N1CCOCC1,MTS,45.2 µM

The first 5 rows once more:

structure | read by | result
CC(C)[C@H](NP(=O)(OC[C@H]1O[C@@H](c2cnc3c(=O)[nH]c(N)nn23)[C@](C)(O)[C@@H]1O)Oc1cccc2ccccc12)C(=O)OCc1ccccc1 | MTT | >100 µM
O=C(NCc1ccc(Cl)cc1)c1nc2ccccc2c(=O)n1O | MTT | 215.7 µM
CS(=O)(=O)Nc1cccc(-c2ccc3nc(N)nc(O[C@@H]4CCOC4)c3n2)c1 | - | >20 µM
COc1ccc(C/C(N)=N/OC(=O)C(c2ccccc2)c2ccccc2)cc1OC | MTS | >100 µM
O=C(NCCc1ccccc1)c1nc2ccccc2c(=O)n1O | MTT | >250 µM